In-gel DMS probing of monomeric and dimeric HIV-1 RNA

Reference: Ye et al. 2022, doi:10.1038/s41594-022-00746-2.

Sequence of the HIV-1 NL4-3 5' RNA, positions 1 to 437, as numbered in the source:
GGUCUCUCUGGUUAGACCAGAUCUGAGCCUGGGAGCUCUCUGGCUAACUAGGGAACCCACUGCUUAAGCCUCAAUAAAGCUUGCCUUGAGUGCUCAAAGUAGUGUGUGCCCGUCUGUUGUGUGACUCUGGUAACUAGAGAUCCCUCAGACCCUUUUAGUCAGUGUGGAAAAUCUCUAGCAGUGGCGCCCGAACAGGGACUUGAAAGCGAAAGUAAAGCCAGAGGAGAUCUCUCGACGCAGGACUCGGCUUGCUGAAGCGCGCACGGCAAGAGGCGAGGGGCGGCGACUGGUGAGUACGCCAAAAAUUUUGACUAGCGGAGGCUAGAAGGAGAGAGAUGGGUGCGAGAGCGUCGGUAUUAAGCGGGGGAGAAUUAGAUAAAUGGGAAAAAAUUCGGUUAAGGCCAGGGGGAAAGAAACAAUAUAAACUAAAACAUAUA

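Mutant RNA libraries with 1G, 2G or 3G starts, with or without cap, were folded at 37 °C for 30 min. High salt was 300 mM KCl and 5 mM MgCl2, low salt 40 mM KCl and 0.1 mM MgCl2; monomer and dimer were parted on a native gel. Each band was probed in the gel with DMS (170 mM, 15 min, 37 °C), with ethanol as control, and sequenced.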

Values are winsor-normalised DMS reactivities of A and C; higher means more reactive, usually unpaired. One numbering serves 1G, 2G and 3G. A position is written with its base.

| position | domain | 1G uncapped low-salt dimer | 3G capped high-salt monomer | 1G uncapped high-salt dimer |
|---|---|---|---|---|
| A220 | antiPAS | 0.20 | 0.33 | 0.21 |
| A222 | antiPAS | 0.27 | 0.24 | 0.28 |
| A225 | none | 0.75 | 0.81 | 0.83 |
| A227 | CU | 0.34 | 0.33 | 0.24 |
| C229 | CU | 0.11 | 0.33 | 0.14 |
| C231 | CU | 0.09 | 0.21 | 0.11 |
| C233 | CU | 0.17 | 0.34 | 0.15 |
| A235 | none | 0.75 | 0.64 | 0.78 |
| C236 | none | 0.42 | 0.54 | 0.41 |
| C238 | none | 0.47 | 0.80 | 0.43 |
| A239 | none | 0.71 | 0.58 | 0.74 |
| A242 | none | 1.11 | 0.87 | 1.12 |
| C243 | SL1 | 0.05 | 0.06 | 0.04 |
| C245 | SL1 | 0.08 | 0.31 | 0.06 |
| C248 | SL1 | 0.03 | 0.05 | 0.04 |
| C252 | SL1 | 0.06 | 0.26 | 0.05 |
| A255 | SL1 | 0.47 | 0.48 | 0.50 |
| A256 | SL1 | 1.03 | 0.82 | 1.09 |
| C258 | SL1 | 0.22 | 0.33 | 0.22 |
| C260 | SL1 | 0.34 | 0.45 | 0.34 |
| C262 | SL1 | 0.23 | 0.37 | 0.22 |
| A263 | SL1 | 0.78 | 0.21 | 0.90 |
| C264 | SL1 | 0.21 | 0.45 | 0.19 |
| C267 | SL1 | 0.08 | 0.14 | 0.07 |
| A268 | SL1 | 0.17 | 0.26 | 0.18 |
| A269 | SL1 | 0.27 | 0.48 | 0.26 |

A selection of 2 entries from above:

| position | domain | 1G uncapped low-salt dimer | 3G capped high-salt monomer | 1G uncapped high-salt dimer |
|---|---|---|---|---|
| A242 | none | 1.11 | 0.87 | 1.12 |
| A227 | CU | 0.34 | 0.33 | 0.24 |